Only a part of the results on these compounds is given; other tests are left out.
Experiments:
Test in all cases: Radioligand binding assay (Eurofins Cerep)
[1] = system: ATP sensitive potassium channel; conditions: 10 μM; radioligand [^3H]glibenclamide; rat
[2] = molecular target: Adenosine A2A (Homo sapiens, UniProt P29274); conditions: 10 μM; radioligand [^3H]CGS 21680
[3] = molecular target: Angiotensin AT1 (Homo sapiens, UniProt P30556); conditions: 10 μM; radioligand [^125I][ Sar^1, Ile^8]-AT-II
[4] = molecular target: Angiotensin AT2 (Homo sapiens, UniProt P50052); conditions: 10 μM; radioligand [^125I]CGP 42112A
[5] = system: Benzodiazepine (central); conditions: 10 μM; radioligand [^3H]flunitrazepam; rat
[6] = system: Ca^2+ channel (L type, ditiazem site) (benzothiazepines); conditions: 10 μM; radioligand [^3H]diltiazem; rat
[7] = molecular target: Ca^2+ channel (N type) (Rattus norvegicus, UniProt Q02294); conditions: 10 μM, radioligand [^125I]ω-conotoxin GVIA
[8] = molecular target: Endothelin ETA (Homo sapiens, UniProt P25101); conditions: 10 μM; radioligand [^125I]Endothelin-1
[9] = system: Estrogen receptor (non-selective); conditions: 10 μM; radioligand [^3H]estradiol
[10] = molecular target: Galanin GAL1 (h) (Homo sapiens, UniProt P47211); conditions: 10 μM; radioligand [^125I]galanin
[11] = molecular target: Galanin GAL2 (Homo sapiens, UniProt O43603); conditions: 10 μM; radioligand [^125I]galanin
[12] = system: Glutamate NMDA site; conditions: 10 μM; radioligand [^3H] CGP 39653; rat
[13] = system: Glutamate Phencyclidine PCP site; conditions: 10 μM; radioligand [^3H]TCP; rat
[14] = molecular target: Histamine H2 (Homo sapiens, UniProt P25021); conditions: 10 μM; radioligand [^125I]APT
[15] = molecular target: Histamine H3 (Homo sapiens, UniProt Q9Y5N1); conditions: 10 μM; radioligand [^3H] N^α-Me-histamine
[16] = molecular target: Metabotropic Glutamate receptor 1 (Rattus norvegicus, UniProt P23385); conditions: 10 μM, radioligand [^3H] Quisqualate
[17] = molecular target: Muscarinic M2 (Homo sapiens, UniProt P08172); conditions: 10 μM; radioligand [^3H]AF-DX 384
[18] = molecular target: Neurokinin NK1 (Homo sapiens, UniProt P25103); conditions: 10 μM; radioligand [^125I]substance P
[19] = molecular target: Neurokinin NK3 (Homo sapiens, UniProt P29371); conditions: 10 μM; radioligand [^125I]SR 142801
[20] = molecular target: Nicotinic neuronal α4β2 (Homo sapiens, UniProt P17787+P43681); conditions: 10 μM; radioligand [^3H]cytisine
[21] = molecular target: Nicotinic neuronal α7 (Homo sapiens, UniProt P36544); conditions: 10 μM; radioligand [^125I]α-bungarotoxin
[22] = molecular target: Opioid NOP (ORL1) (Homo sapiens, UniProt P41146); conditions: 10 μM; radioligand [^3H]nociceptin
[23] = molecular target: Opioid δ2 (DOP) (Homo sapiens, UniProt P41143); conditions: 10 μM; radioligand [^3H]DADLE
[24] = molecular target: Opioid κ (KOP) (Rattus norvegicus, UniProt P34975); conditions: 10 μM, radioligand [^3H]U 69593
[25] = molecular target: Oxytocin (Homo sapiens, UniProt P30559); conditions: 10 μM; radioligand [^3H]oxytocin
[26] = molecular target: Thyrotropin-releasing hormone TRH1 (Homo sapiens, UniProt P34981); conditions: 10 μM; radioligand [^3H]Me-TRH
[27] = molecular target: Vasoactive intestinal peptide 2 (VPAC2) (Homo sapiens, UniProt P41587); conditions: 10 μM; radioligand [^125I]VIP
[28] = system: α2 adrenergic (non-selective); conditions: 10 μM; radioligand [^3H]RX 821002; rat
[29] = molecular target: γ-aminobutyric acid GABAA1 (h) (α1, β2, γ2) (Homo sapiens, UniProt P14867+P47870); conditions: 10 μM; radioligand [^3H]muscimol

Chains of the proteins cited; added tags and fusions are not shown. Residues count along the entry.
UniProt P50052, whole entry: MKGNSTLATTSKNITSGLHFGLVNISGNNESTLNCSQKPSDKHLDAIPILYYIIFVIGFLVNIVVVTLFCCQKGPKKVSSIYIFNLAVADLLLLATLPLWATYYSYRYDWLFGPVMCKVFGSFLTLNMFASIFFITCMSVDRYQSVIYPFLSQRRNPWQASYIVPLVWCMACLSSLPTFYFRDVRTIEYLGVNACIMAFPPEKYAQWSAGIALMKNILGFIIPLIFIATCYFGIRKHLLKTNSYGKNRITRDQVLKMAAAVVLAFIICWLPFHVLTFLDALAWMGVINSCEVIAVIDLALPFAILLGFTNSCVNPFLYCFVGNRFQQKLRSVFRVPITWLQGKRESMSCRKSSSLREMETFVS
UniProt Q02294, whole entry: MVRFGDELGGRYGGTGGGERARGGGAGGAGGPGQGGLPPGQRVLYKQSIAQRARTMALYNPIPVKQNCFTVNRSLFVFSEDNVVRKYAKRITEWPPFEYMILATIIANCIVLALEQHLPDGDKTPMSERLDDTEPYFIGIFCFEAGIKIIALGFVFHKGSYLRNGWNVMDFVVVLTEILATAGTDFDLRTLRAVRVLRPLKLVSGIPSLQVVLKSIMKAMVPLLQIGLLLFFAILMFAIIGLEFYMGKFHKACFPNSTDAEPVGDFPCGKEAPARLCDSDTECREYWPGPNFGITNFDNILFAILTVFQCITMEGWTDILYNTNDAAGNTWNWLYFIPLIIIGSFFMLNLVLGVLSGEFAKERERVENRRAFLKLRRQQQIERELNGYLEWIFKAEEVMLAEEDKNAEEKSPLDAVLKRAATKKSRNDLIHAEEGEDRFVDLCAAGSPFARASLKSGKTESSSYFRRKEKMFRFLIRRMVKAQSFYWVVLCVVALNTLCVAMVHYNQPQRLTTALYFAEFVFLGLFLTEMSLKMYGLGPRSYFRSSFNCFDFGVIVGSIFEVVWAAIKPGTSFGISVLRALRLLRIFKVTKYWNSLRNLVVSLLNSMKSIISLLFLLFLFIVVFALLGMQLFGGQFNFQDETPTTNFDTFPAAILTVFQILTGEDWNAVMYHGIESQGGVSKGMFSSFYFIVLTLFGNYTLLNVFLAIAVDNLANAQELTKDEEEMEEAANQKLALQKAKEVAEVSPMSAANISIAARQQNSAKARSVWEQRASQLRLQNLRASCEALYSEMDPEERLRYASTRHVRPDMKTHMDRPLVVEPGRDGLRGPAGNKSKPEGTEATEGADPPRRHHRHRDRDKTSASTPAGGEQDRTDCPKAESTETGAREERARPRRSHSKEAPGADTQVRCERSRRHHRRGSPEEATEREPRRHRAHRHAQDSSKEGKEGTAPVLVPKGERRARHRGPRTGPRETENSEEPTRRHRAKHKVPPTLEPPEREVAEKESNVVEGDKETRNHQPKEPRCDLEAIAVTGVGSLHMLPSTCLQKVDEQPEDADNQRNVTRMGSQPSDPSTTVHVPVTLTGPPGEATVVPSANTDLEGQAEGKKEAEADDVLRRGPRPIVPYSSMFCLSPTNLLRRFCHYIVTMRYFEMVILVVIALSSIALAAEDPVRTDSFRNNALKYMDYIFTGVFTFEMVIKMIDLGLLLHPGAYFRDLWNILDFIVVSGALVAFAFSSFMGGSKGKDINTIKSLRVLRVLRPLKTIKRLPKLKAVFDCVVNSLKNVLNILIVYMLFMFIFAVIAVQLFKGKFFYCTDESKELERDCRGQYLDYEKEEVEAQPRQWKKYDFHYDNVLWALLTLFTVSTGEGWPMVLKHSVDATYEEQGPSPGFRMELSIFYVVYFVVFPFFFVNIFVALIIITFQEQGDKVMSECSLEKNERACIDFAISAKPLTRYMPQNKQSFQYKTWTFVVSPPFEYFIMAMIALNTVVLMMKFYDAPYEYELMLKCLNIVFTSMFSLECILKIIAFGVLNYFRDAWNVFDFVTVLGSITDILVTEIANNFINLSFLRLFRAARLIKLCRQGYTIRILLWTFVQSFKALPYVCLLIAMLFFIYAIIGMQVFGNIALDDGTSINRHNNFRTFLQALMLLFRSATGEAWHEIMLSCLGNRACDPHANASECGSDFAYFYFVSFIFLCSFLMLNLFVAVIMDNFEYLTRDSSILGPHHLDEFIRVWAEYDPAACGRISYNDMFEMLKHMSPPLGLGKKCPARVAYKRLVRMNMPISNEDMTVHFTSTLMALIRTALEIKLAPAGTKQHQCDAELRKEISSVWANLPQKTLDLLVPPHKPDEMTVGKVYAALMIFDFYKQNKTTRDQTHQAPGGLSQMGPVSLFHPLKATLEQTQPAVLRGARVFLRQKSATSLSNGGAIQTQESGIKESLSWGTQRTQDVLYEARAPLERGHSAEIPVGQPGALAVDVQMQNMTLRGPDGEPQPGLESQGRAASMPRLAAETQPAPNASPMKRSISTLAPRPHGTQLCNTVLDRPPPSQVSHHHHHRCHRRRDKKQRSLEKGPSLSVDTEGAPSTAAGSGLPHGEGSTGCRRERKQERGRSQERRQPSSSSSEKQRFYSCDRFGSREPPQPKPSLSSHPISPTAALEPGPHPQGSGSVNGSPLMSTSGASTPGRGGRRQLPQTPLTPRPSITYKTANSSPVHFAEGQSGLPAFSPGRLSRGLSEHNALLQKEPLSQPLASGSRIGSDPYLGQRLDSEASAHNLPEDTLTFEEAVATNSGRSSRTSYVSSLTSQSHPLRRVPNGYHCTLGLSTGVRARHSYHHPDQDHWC
UniProt P25101, 21-427 limits assumed: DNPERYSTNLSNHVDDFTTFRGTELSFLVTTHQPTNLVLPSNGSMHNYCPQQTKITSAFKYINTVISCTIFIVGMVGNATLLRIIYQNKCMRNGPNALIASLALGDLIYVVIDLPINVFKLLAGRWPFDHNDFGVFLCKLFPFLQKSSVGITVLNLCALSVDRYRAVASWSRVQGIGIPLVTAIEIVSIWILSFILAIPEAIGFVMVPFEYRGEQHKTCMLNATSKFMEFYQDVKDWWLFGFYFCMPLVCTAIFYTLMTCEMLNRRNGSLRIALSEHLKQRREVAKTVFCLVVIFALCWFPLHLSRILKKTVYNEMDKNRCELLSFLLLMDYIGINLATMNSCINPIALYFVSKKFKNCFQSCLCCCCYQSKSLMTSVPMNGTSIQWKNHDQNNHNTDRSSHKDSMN
UniProt P47211, whole entry: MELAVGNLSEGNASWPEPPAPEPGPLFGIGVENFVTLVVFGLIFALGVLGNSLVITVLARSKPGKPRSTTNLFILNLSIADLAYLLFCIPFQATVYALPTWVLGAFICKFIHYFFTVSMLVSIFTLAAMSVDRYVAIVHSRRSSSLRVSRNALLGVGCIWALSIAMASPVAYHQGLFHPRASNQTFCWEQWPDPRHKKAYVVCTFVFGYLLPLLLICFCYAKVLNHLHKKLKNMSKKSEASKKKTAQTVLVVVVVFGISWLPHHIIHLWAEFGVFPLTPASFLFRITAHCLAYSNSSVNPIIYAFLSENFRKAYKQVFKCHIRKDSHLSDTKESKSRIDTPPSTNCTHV
UniProt O43603, whole entry: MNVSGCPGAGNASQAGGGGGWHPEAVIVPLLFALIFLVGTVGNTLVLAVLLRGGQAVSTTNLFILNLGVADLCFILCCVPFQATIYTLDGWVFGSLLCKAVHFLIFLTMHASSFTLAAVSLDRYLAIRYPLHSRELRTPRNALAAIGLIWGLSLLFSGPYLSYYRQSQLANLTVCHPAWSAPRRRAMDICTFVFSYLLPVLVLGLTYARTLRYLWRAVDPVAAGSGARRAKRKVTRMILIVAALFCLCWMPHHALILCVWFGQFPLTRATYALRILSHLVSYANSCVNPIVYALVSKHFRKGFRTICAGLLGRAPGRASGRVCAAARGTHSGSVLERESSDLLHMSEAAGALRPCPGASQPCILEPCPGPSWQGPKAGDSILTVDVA
UniProt P25021, whole entry: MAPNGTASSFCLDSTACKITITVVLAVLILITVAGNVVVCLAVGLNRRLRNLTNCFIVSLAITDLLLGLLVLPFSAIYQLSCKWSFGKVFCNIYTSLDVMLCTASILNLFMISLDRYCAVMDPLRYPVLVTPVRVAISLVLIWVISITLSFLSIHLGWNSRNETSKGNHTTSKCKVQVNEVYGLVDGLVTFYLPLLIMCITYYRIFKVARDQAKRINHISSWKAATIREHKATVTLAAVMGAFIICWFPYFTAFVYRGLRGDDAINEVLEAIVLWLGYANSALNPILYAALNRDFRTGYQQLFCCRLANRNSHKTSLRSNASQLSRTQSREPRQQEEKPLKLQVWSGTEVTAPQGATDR
UniProt P25103, whole entry: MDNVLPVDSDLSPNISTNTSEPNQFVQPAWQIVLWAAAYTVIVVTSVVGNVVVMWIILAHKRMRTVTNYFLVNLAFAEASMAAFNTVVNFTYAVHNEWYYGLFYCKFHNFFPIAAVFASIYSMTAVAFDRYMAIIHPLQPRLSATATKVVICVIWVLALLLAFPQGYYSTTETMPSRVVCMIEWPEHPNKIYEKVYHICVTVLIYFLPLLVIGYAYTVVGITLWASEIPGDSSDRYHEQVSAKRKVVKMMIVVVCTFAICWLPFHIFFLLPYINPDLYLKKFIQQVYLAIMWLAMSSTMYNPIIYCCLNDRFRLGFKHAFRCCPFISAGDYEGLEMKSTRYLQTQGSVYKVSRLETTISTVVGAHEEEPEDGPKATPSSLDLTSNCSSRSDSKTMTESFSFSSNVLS
UniProt P34981, whole entry: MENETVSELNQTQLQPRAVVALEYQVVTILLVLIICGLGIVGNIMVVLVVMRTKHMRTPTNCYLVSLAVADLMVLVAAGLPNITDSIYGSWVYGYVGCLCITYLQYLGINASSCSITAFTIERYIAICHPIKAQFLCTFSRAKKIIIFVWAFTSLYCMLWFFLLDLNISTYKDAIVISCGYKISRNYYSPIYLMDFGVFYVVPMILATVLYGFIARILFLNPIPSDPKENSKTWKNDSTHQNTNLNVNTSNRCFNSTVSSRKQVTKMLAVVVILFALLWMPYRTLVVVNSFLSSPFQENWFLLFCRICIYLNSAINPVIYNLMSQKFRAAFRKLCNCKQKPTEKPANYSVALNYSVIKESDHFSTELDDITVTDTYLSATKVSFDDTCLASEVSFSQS
UniProt P41587, 24-438 limits assumed: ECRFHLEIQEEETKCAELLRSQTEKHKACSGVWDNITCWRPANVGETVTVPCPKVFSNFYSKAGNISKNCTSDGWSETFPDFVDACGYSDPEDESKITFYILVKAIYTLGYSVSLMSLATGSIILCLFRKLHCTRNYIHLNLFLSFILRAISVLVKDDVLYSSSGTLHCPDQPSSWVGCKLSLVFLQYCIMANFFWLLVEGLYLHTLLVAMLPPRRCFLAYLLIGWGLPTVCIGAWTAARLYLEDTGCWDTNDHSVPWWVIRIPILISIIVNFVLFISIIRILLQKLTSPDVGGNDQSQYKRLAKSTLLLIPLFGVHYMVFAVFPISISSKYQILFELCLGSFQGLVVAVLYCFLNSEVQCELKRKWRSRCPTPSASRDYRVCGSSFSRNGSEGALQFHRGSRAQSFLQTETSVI
UniProt P14867, 28-456 limits assumed: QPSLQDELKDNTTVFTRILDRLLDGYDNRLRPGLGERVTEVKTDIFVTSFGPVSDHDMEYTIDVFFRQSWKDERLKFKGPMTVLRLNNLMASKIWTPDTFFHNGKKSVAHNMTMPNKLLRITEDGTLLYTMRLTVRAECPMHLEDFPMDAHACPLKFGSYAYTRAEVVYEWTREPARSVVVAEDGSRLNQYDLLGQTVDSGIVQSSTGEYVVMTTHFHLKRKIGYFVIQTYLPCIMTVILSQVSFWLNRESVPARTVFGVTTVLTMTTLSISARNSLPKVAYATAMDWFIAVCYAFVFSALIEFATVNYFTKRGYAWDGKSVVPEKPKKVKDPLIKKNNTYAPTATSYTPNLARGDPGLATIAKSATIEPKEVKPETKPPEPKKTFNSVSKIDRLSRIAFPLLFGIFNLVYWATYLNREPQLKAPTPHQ
UniProt P47870, 25-512 limits assumed: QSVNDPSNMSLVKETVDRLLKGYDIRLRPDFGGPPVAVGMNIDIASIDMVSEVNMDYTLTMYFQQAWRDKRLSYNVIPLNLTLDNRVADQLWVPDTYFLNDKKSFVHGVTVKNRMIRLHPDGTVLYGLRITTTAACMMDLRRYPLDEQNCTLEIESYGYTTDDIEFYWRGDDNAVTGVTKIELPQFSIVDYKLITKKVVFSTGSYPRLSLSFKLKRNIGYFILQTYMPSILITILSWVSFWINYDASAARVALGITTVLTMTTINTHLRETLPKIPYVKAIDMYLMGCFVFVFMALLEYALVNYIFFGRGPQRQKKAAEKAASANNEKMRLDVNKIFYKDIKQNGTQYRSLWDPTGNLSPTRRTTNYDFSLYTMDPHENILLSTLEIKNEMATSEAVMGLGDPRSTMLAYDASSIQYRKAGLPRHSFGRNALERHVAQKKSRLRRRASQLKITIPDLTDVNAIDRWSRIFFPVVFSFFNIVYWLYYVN

Structure (SMILES): C[C@@H](O)[C@@H]1NC(=O)[C@H]2NC(=O)[C@@H](NC(=O)CN)CSSC[C@H](NC(=O)[C@H](CCCNC(=N)N)NC(=O)[C@@H]3CCCN3C(=O)[C@H](CC(=O)O)NC1=O)C(=O)N[C@@H](CCCNC(=N)N)C(=O)N[C@@H](Cc1ccc(O)c(I)c1)C(=O)N[C@@H](CCC(N)=O)C(=O)N[C@H](C(=O)N[C@H](CC(=O)N[C@@H](CCCNC(=N)N)C(=O)O)Cc1ccc(O)cc1)CSSC2(C)C
- Inhibition [%] [1]: −25.8%
- Inhibition [%] [2]: −15.7%
- Inhibition [%] [3]: −13.6%
- Inhibition [%] [4]: 17.8%
- Inhibition [%] [5]: −6.4%
- Inhibition [%] [6]: −16.5%
- Inhibition [%] [7]: −7.3%
- Inhibition [%] [8]: −17.9%
- Inhibition [%] [9]: −14.8%
- Inhibition [%] [10]: −14.2%
- Inhibition [%] [11]: −4.7%
- Inhibition [%] [12]: −0.1%
- Inhibition [%] [13]: −6.0%
- Inhibition [%] [14]: −6.7%
- Inhibition [%] [15]: 24.1%
- Inhibition [%] [16]: −4.0%
- Inhibition [%] [17]: 27.2%
- Inhibition [%] [18]: −7.5%
- Inhibition [%] [19]: −35.5%
- Inhibition [%] [20]: −18.4%
- Inhibition [%] [21]: 54.3%
- Inhibition [%] [22]: 2.7%
- Inhibition [%] [23]: 4.5%
- Inhibition [%] [24]: 2.6%
- Inhibition [%] [25]: 13.1%
- Inhibition [%] [26]: −8.7%
- Inhibition [%] [27]: 0.7%
- Inhibition [%] [28]: 0%
- Inhibition [%] [29]: 0.8%
